Measurements reported in PubChem BioAssay AID1259414 (Drosophila RNAi Screening Center, 2018)

Purpose: 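Genome-wide screen for host control of endosymbiont load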 (primary screen)
Cell system: Drosophila JW18 cells infected with Wolbachia
Reagents: long dsRNA against Drosophila genes, 0.25 µg dsRNA per well of a 384-well plate
Timing: 5 days
Treatment: cells persistently infected with Wolbachia before knock-down; no added drug
Read-out: 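Imaged fluorescence in situ signal for Wolbachia 23S rRNA per DAPI-counted host cell, given as a robust z-score within each plate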
Reading the numbers: Wolbachia per cell robust z: higher = more Wolbachia per host cell than the plate typical
Active means: 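Active if absolute robust z reaches 1.5 in two or more of three replicates, leaving out multi- or no-target dsRNAs, genes unexpressed in JW18 and A1 wells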
The screen tested about 24,000 reagents; below is a random part of those that have a named target and a result. In the full data, about 1,210 (5%) are marked active. 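Inactive calls also include excluded dsRNAs with several or no targets, genes unexpressed in JW18, and well A1, regardless of score.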

{"Gene":"CG31821","dsRNA":"DRSC22162","Wolbachia per cell robust z, rep 1":-2.58,"Wolbachia per cell robust z, rep 2":-1.93,"Wolbachia per cell robust z, rep 3":-0.39,"activity call":"active"}
{"Gene":"Rpn9","dsRNA":"DRSC16840","Wolbachia per cell robust z, rep 1":0.318,"Wolbachia per cell robust z, rep 2":1.26,"Wolbachia per cell robust z, rep 3":1.28,"activity call":"inactive"}
{"Gene":"Rpn9","dsRNA":"DRSC27177","Wolbachia per cell robust z, rep 1":1.84,"Wolbachia per cell robust z, rep 2":0.816,"Wolbachia per cell robust z, rep 3":1.92,"activity call":"active"}
{"Gene":"CG32512","dsRNA":"DRSC20519","Wolbachia per cell robust z, rep 1":-0.925,"Wolbachia per cell robust z, rep 2":0.0432,"Wolbachia per cell robust z, rep 3":0.548,"activity call":"inactive"}
{"Gene":"CG32512","dsRNA":"DRSC20551","Wolbachia per cell robust z, rep 1":-0.603,"Wolbachia per cell robust z, rep 2":-1.56,"Wolbachia per cell robust z, rep 3":-1.66,"activity call":"active"}
{"Gene":"CG32512","dsRNA":"DRSC21401","Wolbachia per cell robust z, rep 1":-0.17,"Wolbachia per cell robust z, rep 2":-1.18,"Wolbachia per cell robust z, rep 3":-0.211,"activity call":"inactive"}
{"Gene":"CG11892","dsRNA":"DRSC14428","Wolbachia per cell robust z, rep 1":-2.25,"Wolbachia per cell robust z, rep 2":0.563,"Wolbachia per cell robust z, rep 3":2.5,"activity call":"inactive"}
{"Gene":"CG32106","dsRNA":"DRSC09219","Wolbachia per cell robust z, rep 1":-0.293,"Wolbachia per cell robust z, rep 2":0.00862,"Wolbachia per cell robust z, rep 3":-0.167,"activity call":"inactive"}
{"Gene":"asun","dsRNA":"DRSC16733","Wolbachia per cell robust z, rep 1":-0.0734,"Wolbachia per cell robust z, rep 2":-0.163,"Wolbachia per cell robust z, rep 3":0.186,"activity call":"inactive"}
{"Gene":"CG2267","dsRNA":"DRSC15435","Wolbachia per cell robust z, rep 1":-3.21,"Wolbachia per cell robust z, rep 2":0.202,"Wolbachia per cell robust z, rep 3":0.0538,"activity call":"inactive"}
{"Gene":"CG13838","dsRNA":"DRSC14688","Wolbachia per cell robust z, rep 1":-0.398,"Wolbachia per cell robust z, rep 2":0.618,"Wolbachia per cell robust z, rep 3":-3.15,"activity call":"inactive"}
{"Gene":"CG13838","dsRNA":"DRSC29055","Wolbachia per cell robust z, rep 1":-3.97,"Wolbachia per cell robust z, rep 2":-0.552,"Wolbachia per cell robust z, rep 3":-2.08,"activity call":"inactive"}
{"Gene":"CG30196","dsRNA":"DRSC04156","Wolbachia per cell robust z, rep 1":-3.26,"Wolbachia per cell robust z, rep 2":-0.422,"Wolbachia per cell robust z, rep 3":-6.98,"activity call":"active"}
{"Gene":"Snm1","dsRNA":"DRSC12130","Wolbachia per cell robust z, rep 1":-0.994,"Wolbachia per cell robust z, rep 2":-1.04,"Wolbachia per cell robust z, rep 3":-0.896,"activity call":"inactive"}
{"Gene":"CG4250","dsRNA":"DRSC04455","Wolbachia per cell robust z, rep 1":0.509,"Wolbachia per cell robust z, rep 2":-0.4,"Wolbachia per cell robust z, rep 3":-0.473,"activity call":"inactive"}
{"Gene":"PolZ1","dsRNA":"DRSC06800","Wolbachia per cell robust z, rep 1":1.74,"Wolbachia per cell robust z, rep 2":1.45,"Wolbachia per cell robust z, rep 3":0.153,"activity call":"inactive"}
{"Gene":"PolZ1","dsRNA":"DRSC28574","Wolbachia per cell robust z, rep 1":0.869,"Wolbachia per cell robust z, rep 2":-0.0831,"Wolbachia per cell robust z, rep 3":0.656,"activity call":"inactive"}
{"Gene":"Amy-d","dsRNA":"DRSC05919","Wolbachia per cell robust z, rep 1":0.472,"Wolbachia per cell robust z, rep 2":0.531,"Wolbachia per cell robust z, rep 3":0.115,"activity call":"inactive"}
{"Gene":"TfAP-2","dsRNA":"DRSC11601","Wolbachia per cell robust z, rep 1":0.651,"Wolbachia per cell robust z, rep 2":0.415,"Wolbachia per cell robust z, rep 3":-0.445,"activity call":"inactive"}
{"Gene":"CG43078","dsRNA":"DRSC10292","Wolbachia per cell robust z, rep 1":-0.662,"Wolbachia per cell robust z, rep 2":0.647,"Wolbachia per cell robust z, rep 3":0.12,"activity call":"inactive"}
{"Gene":"CG43078","dsRNA":"DRSC10608","Wolbachia per cell robust z, rep 1":-1.3,"Wolbachia per cell robust z, rep 2":-3.48,"Wolbachia per cell robust z, rep 3":0.0769,"activity call":"inactive"}
{"Gene":"CG43078","dsRNA":"DRSC21541","Wolbachia per cell robust z, rep 1":-0.374,"Wolbachia per cell robust z, rep 2":-1.05,"Wolbachia per cell robust z, rep 3":0.365,"activity call":"inactive"}
{"Gene":"CG43078","dsRNA":"DRSC22327","Wolbachia per cell robust z, rep 1":0.582,"Wolbachia per cell robust z, rep 2":0.92,"Wolbachia per cell robust z, rep 3":0.263,"activity call":"inactive"}
{"Gene":"CG43078","dsRNA":"DRSC27481","Wolbachia per cell robust z, rep 1":0.00039,"Wolbachia per cell robust z, rep 2":-0.123,"Wolbachia per cell robust z, rep 3":-9.94,"activity call":"inactive"}

4 consecutive reagents from above:
{"Gene":"CG32512","dsRNA":"DRSC21401","Wolbachia per cell robust z, rep 1":-0.17,"Wolbachia per cell robust z, rep 2":-1.18,"Wolbachia per cell robust z, rep 3":-0.211,"activity call":"inactive"}
{"Gene":"CG11892","dsRNA":"DRSC14428","Wolbachia per cell robust z, rep 1":-2.25,"Wolbachia per cell robust z, rep 2":0.563,"Wolbachia per cell robust z, rep 3":2.5,"activity call":"inactive"}
{"Gene":"CG32106","dsRNA":"DRSC09219","Wolbachia per cell robust z, rep 1":-0.293,"Wolbachia per cell robust z, rep 2":0.00862,"Wolbachia per cell robust z, rep 3":-0.167,"activity call":"inactive"}
{"Gene":"asun","dsRNA":"DRSC16733","Wolbachia per cell robust z, rep 1":-0.0734,"Wolbachia per cell robust z, rep 2":-0.163,"Wolbachia per cell robust z, rep 3":0.186,"activity call":"inactive"}
